No dose or concentration is given here for some results.
The substances below were run on HLA-DR (assay: Semiquantification of Neisseria meningitidis OMV-derived HLA-DR epitopes on pulsed MDDC (approach F)). Settings: PorA-derived epitopes; HLA-DR1 or HLA-DR2 MDDC pulsed with P1.7-2.4 or P1.5-2.10 OMV.
Assay type: cell-based, human

Row | Substance | Abundance (copies/cell)
1 | YTQINAASVGLRHKF (listed as Neisseria meningitidis) [SEQ ID NO: 110] | 3,500-13,000 copies/cell
2 | GIGNYTQINAASVG (listed as Neisseria meningitidis) [SEQ ID NO: 105] | 80-150 copies/cell
3 | GIGNYTQINAASVGLR (listed as Neisseria meningitidis) [SEQ ID NO: 104] | 200-1,500 copies/cell
4 | TSYDQIIAGVDYDFSKRTSAIVSGAWLKRNTG (listed as Neisseria meningitidis) [SEQ ID NO: 101] | 1,800 copies/cell
5 | AGEFGTLRAGRVAN (listed as Neisseria meningitidis) [SEQ ID NO: 85] | 2,500 copies/cell
6 | GEFGTLRAGRVANQ (listed as Neisseria meningitidis) [SEQ ID NO: 88] | 100-3,600 copies/cell
7 | IGNYTQINAASVG (listed as Neisseria meningitidis) [SEQ ID NO: 108] | 80-2,000 copies/cell
8 | LAGEFGTLRAGRVANQF (listed as Neisseria meningitidis) [SEQ ID NO: 81] | 75 copies/cell
9 | FGTLRAGRVANQ (listed as Neisseria meningitidis) [SEQ ID NO: 91] | 75 copies/cell
10 | LAGEFGTLRAGRVANQ (listed as Neisseria meningitidis) [SEQ ID NO: 82] | 750-3,500 copies/cell
11 | GKPGSDVYYAGLNYKNGGFAGNYAFKYARHAN (listed as Neisseria meningitidis) [SEQ ID NO: 98] | 580 copies/cell
12 | AGEFGTLRAGRVA (listed as Neisseria meningitidis) [SEQ ID NO: 86] | 350 copies/cell
13 | SPDFSGFSGSVQFVPIQNSK (listed as Neisseria meningitidis) [SEQ ID NO: 95] | 50 copies/cell
14 | IGNYTQINAASVGL (listed as Neisseria meningitidis) [SEQ ID NO: 107] | 30-800 copies/cell
15 | RNTGIGNYTQINAAS (listed as Neisseria meningitidis) [SEQ ID NO: 103] | 30 copies/cell
16 | IRTKISDFGSFIGFKG (listed as Neisseria meningitidis) [SEQ ID NO: 77] | 580-1,000 copies/cell
17 | KPGSDVYYAGLNYKNGGFAGNYAFKYARHAN (listed as Neisseria meningitidis) [SEQ ID NO: 99] | 520 copies/cell
18 | IRTKISDFGSFIGFK (listed as Neisseria meningitidis) [SEQ ID NO: 78] | 40 copies/cell
19 | RHDDMoxSVSVRYD (RHDDMSVSVRYD; oxidized methionine; (5)..(5) oxidized methionine; listed as Neisseria meningitidis) [SEQ ID NO: 93] | 170 copies/cell

Row | Substance | Abundance (copies/cell)
20 | LAGEFGTLRAGRVANQFD (listed as Neisseria meningitidis) [SEQ ID NO: 80] | 25 copies/cell
21 | GEFGTLRAGRVA (listed as Neisseria meningitidis) [SEQ ID NO: 90] | 350 copies/cell
22 | GEFGTLRAGRVAN (listed as Neisseria meningitidis) [SEQ ID NO: 89] | 1,000 copies/cell
23 | SPEFSGFSGSVQFVPAQNSK (listed as Neisseria meningitidis) [SEQ ID NO: 94] | 970 copies/cell
24 | TKISDFGSFIGFKG (listed as Neisseria meningitidis) [SEQ ID NO: 79] | 60 copies/cell
25 | AGEFGTLRAGRVANQ (listed as Neisseria meningitidis) [SEQ ID NO: 84] | 300-8,250 copies/cell
26 | ATASYRFGNAVPRIS (listed as Neisseria meningitidis) [SEQ ID NO: 100] | 160 copies/cell
27 | IGNYTQINAASVGLR (listed as Neisseria meningitidis) [SEQ ID NO: 106] | 300-3,500 copies/cell
28 | NYTQINAASVGLRHKF (listed as Neisseria meningitidis) [SEQ ID NO: 109] | 1,070-1,850 copies/cell
29 | GKPGSDVYYAGLNYKNGGFAGNYAFKYARHANV (listed as Neisseria meningitidis) [SEQ ID NO: 97] | 920 copies/cell
30 | RNTGIGNYTQINAASVG (listed as Neisseria meningitidis) [SEQ ID NO: 102] | 20-60 copies/cell
31 | DVSLYGEIKAGVEGRNYQLQ (listed as Neisseria meningitidis) [SEQ ID NO: 75] | 30 copies/cell
32 | LAGEFGTLRAGRVAN (listed as Neisseria meningitidis) [SEQ ID NO: 83] | 300 copies/cell
33 | DVSLYGEIKAGVEGRNIQLQ (listed as Neisseria meningitidis) [SEQ ID NO: 73] | 1,700-7,420 copies/cell
34 | DVSLYGEIKAGVEGRNYQ (listed as Neisseria meningitidis) [SEQ ID NO: 76] | 50-1,440 copies/cell
35 | GEFGTLRAGRVANQF (listed as Neisseria meningitidis) [SEQ ID NO: 87] | 750 copies/cell
36 | DVSLYGEIKAGVEGRNIQ (listed as Neisseria meningitidis) [SEQ ID NO: 74] | 2,800-16,890 copies/cell
37 | GKPGSDVYYAGLNYKNGGFAGNYAFKYARHANVG (listed as Neisseria meningitidis) [SEQ ID NO: 96] | 2,100 copies/cell

Same assay, conditions: non-PorA derived epitopes; OMV pulsed MDDC

Row | Substance | Abundance (copies/cell)
38 | KAFYQRQLAVAVKRA (listed as Neisseria meningitidis) [SEQ ID NO: 123] | 70 copies/cell
39 | PRVFGSVSRGDDTENSDIDLLVDAKTGTTLLDLG (listed as Neisseria meningitidis) [SEQ ID NO: 128] | 550 copies/cell
40 | YVQADAAHAKA (listed as Neisseria meningitidis) [SEQ ID NO: 117] | 380 copies/cell
41 | IKNHGYELGASYRTGGLTAKVGVSHSKPRFY (listed as Neisseria meningitidis) [SEQ ID NO: 119] | 6,290 copies/cell
42 | ENKRHYIGGILERTQQT (listed as Neisseria meningitidis) [SEQ ID NO: 127] | 260 copies/cell
43 | SDSQILYHQGRFIVDPA (listed as Neisseria meningitidis) [SEQ ID NO: 118] | 950 copies/cell
44 | RSSYAAEGAALSAQ (listed as Neisseria meningitidis) [SEQ ID NO: 126] | 30 copies/cell
45 | IKNHGYELGASYRTGGLTAKVGVSHSKPRF (listed as Neisseria meningitidis) [SEQ ID NO: 120] | 2,320 copies/cell
46 | ADRYIFAPAARGYRK (listed as Neisseria meningitidis) [SEQ ID NO: 134] | 240 copies/cell
47 | VGRDVRLGVNYKF (listed as Neisseria meningitidis) [SEQ ID NO: 122] | >2,000 copies/cell
48 | EGASGFYVQADAAHAKAS (listed as Neisseria meningitidis) [SEQ ID NO: 115] | 350 copies/cell
49 | DPGALVTYSGAAVLK (listed as Neisseria meningitidis) [SEQ ID NO: 112] | 80 copies/cell
50 | YRKQYMIERNNLLPT (listed as Neisseria meningitidis) [SEQ ID NO: 125] | 370 copies/cell
51 | KAFYQRQLAVAVKR (listed as Neisseria meningitidis) [SEQ ID NO: 124] | 790 copies/cell
52 | DDKLAFAKETGADLVVN (listed as Neisseria meningitidis) [SEQ ID NO: 132] | 70 copies/cell
53 | HDHIIVTLKNHTLPT (listed as Neisseria meningitidis) [SEQ ID NO: 131] | 330 copies/cell
54 | AANLLEPLPASTINET (listed as Neisseria meningitidis) [SEQ ID NO: 111] | 30 copies/cell
55 | EGASGFYVQADAAHAKASSS (listed as Neisseria meningitidis) [SEQ ID NO: 114] | 80 copies/cell
56 | YVQADAAHAKAS (listed as Neisseria meningitidis) [SEQ ID NO: 116] | 380 copies/cell
57 | LPGVGRDVRLGVNYKF (listed as Neisseria meningitidis) [SEQ ID NO: 121] | 9,610 copies/cell
58 | INNYYWHAFAREKGVQ (listed as Neisseria meningitidis) [SEQ ID NO: 113] | 150 copies/cell
59 | MAQYDRLGLTRSNTSC (listed as Neisseria meningitidis) [SEQ ID NO: 130] | 50 copies/cell
60 | DKKVFTDARAVSTRQD (listed as Neisseria meningitidis) [SEQ ID NO: 133] | 70 copies/cell
61 | DGSRSPYYVQADLAYAAERITHD (listed as Neisseria meningitidis) [SEQ ID NO: 129] | 70 copies/cell

— patent US20110186731A1, “LCMS TECHNOLOGY AND ITS USES” (priority 2008, published 2011)
